A mixed list of measured activities; the numbers were collected in NIAID ChemDB.

All rows: growth or infection tests; agent: Herpes simplex virus 1

Rows are shuffled and stem from different studies. Blank or dashed fields: not listed here. ECn is the concentration giving n% inhibition of infection, replication or growth. Two numbers with a dash give a range or band.

| structure | endpoint | cell line | read by | strain | value |
|---|---|---|---|---|---|
| Nc1nccc2c1ncn2[C@H]1CC[C@@H](CO)O1 | EC50 | VERO | plaque count |  | >429 µM |
| Nc1ncnc2c1ncn2CCCC(O)CF | EC50 | ESM | cytopathic effect | KOS | >400 µg/mL |
| NC(N)NN=c1/c(=N\NC(N)N)c2cc3ccccc3cc2/c1=N\NC(N)N | EC50 | HEP-2 | plaque count | MP | 2.5 µM |
| Nc1ccn(CCCC(O)CF)c(=O)n1 | EC50 | ESM | cytopathic effect | KOS | >400 µg/mL |
| Cc1ccc(S(=O)(=O)n2cc(I)c(=O)[nH]c2=O)cc1 | EC50 | HEL | cytopathic effect | KOS | >200 µM |
| O=c1[nH]c(=O)n([C@H]2C[C@H](O)[C@@H](CO)O2)cc1/C=C\Cl | EC50 | PRK | cytopathic effect | KOS | 0.7 µg/mL |
| C[C@H](Cn1cnc2c(N)nc(N)nc21)OCP(=O)(O)O | EC50 | E6SM | cytopathic effect | KOS F McIntyre | 496 µM |
| CSCC[C@H](N)C(=O)OCCOCn1cnc2c(=O)[nH]c(N)nc21 | EC50 | VERO |  | SC16 | 1.4 µM |
| Nc1nc2c(ncn2COC2COP(=O)(O)OC2)c(=O)[nH]1 | EC50 | MRC-5 | plaque count | Schooler | 10–37 µM |
| Nc1nc2c(ncn2COC(CO)CO)c(=O)[nH]1 | EC50 | VERO | cytopathic effect | K1 | 0.17 µM |
| OC[C@H]1O[C@@H](c2cncc(Br)c2)[C@@H](O)[C@H]1O | EC50 | E6SM | cytopathic effect | KOS | ≥100 µg/mL |
| COc1nc(=O)n([C@H]2C[C@H](O)[C@@H](CO)O2)cc1/C=C/Cl | EC50 | PRK | cytopathic effect | F | 0.2 µg/mL |
| CCCc1cn([C@H]2C[C@H](O)[C@@H](COP(=O)(O)O)O2)c(=O)[nH]c1=O | EC50 | HEP-2 | cytopathic effect | B2006 (TK-) | >797 µg/mL |
| O=c1[nH]c(=O)n([C@H]2C[C@H](O)[C@@H](COP3(=O)OCc4cccc(-c5ccccc5)c4O3)O2)cc1/C=C/Br | EC50 | VERO | plaque count | B2006 (TK-) | >128 µg/mL |
| NC(=S)c1cn(COC(CO)CO)c2ncnc(N)c12 | EC90 | HFF | virus yield |  | 3.5 µM |
| Nc1ncnc2c1nnn2[C@H]1C[C@H](O)[C@@H](CO)O1 | EC50 | VERO | plaque count |  | >396 µM |
| [N-]=[N+]=N[C@H]1C[C@H](CO)S[C@@H]1n1cnc2c(N)ncnc21 | EC50 |  |  |  | >100 µg/mL |
| Nc1ncnc2c1c(Cl)cn2COC(CO)CO | EC50 | HFF | plaque count |  | 2 µM |
| Nc1ncnc2c1ncn2C[C@@H](CO)OCP(=O)(O)O | EC50 | E6SM | cytopathic effect | KOS F McIntyre | 0.63 µM |
| CC(=O)Nc1ccc2c(C)ccnc2c1 | EC50 | KB | plaque count |  | 7 µg/mL |
| [N-]=[N+]=N[C@H]1C[C@H](CO)S[C@@H]1n1ccc(=O)[nH]c1=O | EC50 |  |  |  | >100 µg/mL |
| O=c1[nH]c(=O)n([C@H]2C[C@H](O)[C@@H](COP3(=O)OCc4c(ccc5ccccc45)O3)O2)cc1/C=C/Br | EC50 | VERO | plaque count | B2006 (TK-) | >128 µg/mL |
| Nc1nc2c(ncn2COCCOC(=O)[C@H](N)C2CCCN2)c(=O)[nH]1 | EC50 | VERO |  | SC16 | 1.08 µM |
| O=c1ccn([C@H]2C[C@H](O)[C@@H](CO)O2)c(=O)[nH]1 | EC50 | HeLa | virus yield |  | <50 µM |
| Nc1ncc2c(ncn2COC(CO)CO)n1 | EC50 | VERO | cytopathic effect | K1R | 2.2 µM |
| Nc1nc(=O)n([C@H]2C[C@H](O)[C@@H](CO)O2)cc1F | EC90 | HeLa | virus yield |  | 50 µM |
| [N-]=[N+]=N[C@H]1C[C@H](CO)S[C@@H]1n1cnc2c(=O)[nH]cnc21 | EC50 |  |  |  | >100 µg/mL |
| CCOC(=O)CC1OP(=O)(OC[C@H]2O[C@@H](n3cc(/C=C/Br)c(=O)[nH]c3=O)C[C@@H]2O)Oc2cccc(Cl)c21 | EC50 | VERO | plaque count | B2006 (TK-) | >128 µg/mL |
| Nc1nccc2c1ncn2[C@H]1C[C@H](O)[C@@H](CO)O1 | EC50 | VERO | plaque count |  | >397 µM |
| Nc1nc(N)c2ncn(C[C@@H](CF)OCP(=O)(O)O)c2n1 | EC50 | E6SM | cytopathic effect | KOS F McIntyre | >600 µM |
| Cc1cnc2cc(N(C)C)ccc2c1 | EC50 | KB | plaque count |  | 9 µg/mL |
| CCCCCCC#Cc1cn(S(=O)(=O)c2ccc(C)cc2)c(=O)[nH]c1=O | EC50 | HEL | cytopathic effect | KOS | >200 µM |
| CCCCCCCCCCCCCC(=O)NC(C)(C)C(=O)N1C[C@@H](O)C[C@H]1C(=O)N[C@@H](CC(C)C)C(=O)N[C@H](C(=O)N[C@@H](CCC(N)=O)C(=O)N[C@@H](CC(C)C)C(=O)OC)C(C)C | EC50 | VERO | ELISA |  | 2.3 µM |
| O=c1[nH]c(=O)n([C@H]2C[C@H](O)[C@@H](COP3(=O)OCc4ccc5ccccc5c4O3)O2)cc1/C=C/Br | EC50 | VERO | plaque count | B2006 (TK-) | >128 µg/mL |
| Nc1nc(Cl)c2ncn([C@@H](CCO)SCCO)c2n1 | EC50 | HFF | cytopathic effect |  | >200 µM |
| [O-][n+]1onc2ncnc(N3CC[N+]4(CC3)CC[N+]3(CCN(c5ncnc6no[n+]([O-])c56)CC3)CC4)c21 | EC50 | GMK | plaque count | K1R | 8.4 µM |
| Cc1c(NC(=O)COCc2ccccc2)ccc2nc(N(C(C)C)C(C)C)oc(=O)c12 | EC50 | VERO | plaque count |  | 11.2 µM |
| CCCCCCCCCCCCCC(=O)NC(C)(C)C(=O)N1C[C@@H](O)CC1C(=O)N[C@@H](CC(C)C)C(=O)N[C@H](C(=O)N[C@@H](CCC(N)=O)C(=O)N[C@H](CO)CC(C)C)C(C)C | EC50 | VERO | ELISA |  | 1.1 µM |
| Nc1nc(N)c2ncn(C[C@H](CF)OCP(=O)(O)O)c2n1 | EC50 | E6SM | cytopathic effect | KOS F McIntyre | >600 µM |
| OC[C@H]1O[C@@H](n2nnc3ccnc(Cl)c32)C[C@@H]1O | EC50 | VERO | plaque count |  | >368 µM |
| O=C1CC(c2ccccc2)n2nc(-c3cccnc3)nc2N1 | EC50 | VERO | plaque count | 7401H | >50 µg/mL |
| CCc1cn([C@H]2C[C@H](O)[C@@H](COP(=O)(O)O)O2)c(=O)[nH]c1=O | EC50 | BSC-1 | cytopathic effect | KOS | 4.1 µg/mL |
| COC(=O)C[C@@H](SCCO)n1cnc2c(Cl)nc(N)nc21 | EC50 | HFF | cytopathic effect |  | >200 µM |
| NC(=S)c1cncc([C@@H]2O[C@H](CO)[C@@H](O)[C@@H]2O)c1 | EC50 | E6SM | cytopathic effect | KOS | ≥100 µg/mL |
| Nc1ncnc2c1nnn2[C@@H]1O[C@H](CO)[C@@H](O)[C@H]1O | EC50 | VERO | plaque count |  | >4.5 µM |
| CCCCCCCCCCC#Cc1cn(S(=O)(=O)c2ccc(C)cc2)c(=O)[nH]c1=O | EC50 | HEL | cytopathic effect | KOS | >200 µM |
| Nc1ccn(C(CF)CCCO)c(=O)n1 | EC50 | ESM | cytopathic effect | B2006 (TK-) | >400 µg/mL |
| CCCCC/C=C/C/C=C/CCCCCCCC(=O)NC(C)(C)C(=O)N1C[C@@H](O)C[C@H]1C(=O)N[C@@H](CC(C)C)C(=O)N[C@H](C(=O)N[C@@H](CCC(N)=O)C(=O)N[C@@H](CC(C)C)C(=O)OC)C(C)C | EC50 | VERO | ELISA |  | 3.4 µM |
| CC(=O)c1c(O)c2c(c(C(=O)CC(C)C)c1O)OC(C(C)(C)O)C2 | EC50 | VERO | cytopathic effect |  | 22.3 µM |
| OC[C@H]1O[C@H](c2cncc(Br)c2)[C@@H](O)[C@H]1O | EC50 | E6SM | cytopathic effect | KOS | ≥100 µg/mL |
| Nc1nc2c(ncn2C[C@H](CF)OCP(=O)(O)O)c(=O)[nH]1 | EC50 | E6SM | cytopathic effect | KOS F McIntyre | 165 µM |
| CCCc1nc2n(n1)C(c1ccccc1)CC(=O)N2 | EC50 | VERO | plaque count | 7401H | >50 µg/mL |
| Cc1cc(Cl)nc2cc(N)ccc12 | EC50 | KB | plaque count |  | 3 µg/mL |
| Nc1nccc2c1ncn2[C@@H]1O[C@H](CO)[C@@H](O)[C@H]1O | EC50 | VERO | plaque count |  | 41 µM |
| Nc1ncc2ncn(C[C@@H](CO)OCP(=O)(O)O)c2n1 | EC50 | E6SM | cytopathic effect | KOS F McIntyre | 13 µM |
| NC(N)NN=c1/c(=N\NC(N)N)c2ccccc2/c1=N\NC(N)N | EC50 | HEP-2 | plaque count | MP | 20 µM |
| Nc1ncnc2c1ncn2C[C@@H](CF)OCP(=O)(O)O | EC50 | E6SM | cytopathic effect | KOS F McIntyre | 567 µM |
| COc1ccc(C2CC(=O)Nc3nc(-c4cccnc4)nn32)cc1 | EC50 | VERO | plaque count | 7401H | >50 µg/mL |
| Cc1cc(N(C)C)c2ccc(N(C)C)cc2n1 | EC50 | KB | plaque count |  | 2 µg/mL |
| O=C1CC(c2ccc([N+](=O)[O-])cc2)n2nc(C3CCCCC3)nc2N1 | EC50 | VERO | plaque count | 7401H | >50 µg/mL |
| CN(C)c1ccc2ccc(N(C)C)nc2c1 | EC50 | KB | plaque count |  | 3 µg/mL |
| C=C[C@@](C)(CO)CCn1cnc2c(N)ncnc21 | EC50 |  |  |  | >100 µg/mL |
| Nc1nc2c(ncn2COCCO)c(=O)[nH]1 | EC50 | VERO | virus yield | 7401H | 0.35 µg/mL |
| CCCCCC#Cc1cn(S(=O)(=O)c2ccc(C)cc2)c(=O)[nH]c1=O | EC50 | HEL | cytopathic effect | KOS | >40 µM |
| Nc1nccc2nn([C@H]3C[C@H](O)[C@@H](CO)O3)nc12 | EC50 | VERO | plaque count |  | >396 µM |
| [N-]=[N+]=N[C@H]1C[C@@H](CO)S[C@@H]1n1ccc(N)nc1=O | EC50 |  |  |  | >100 µg/mL |
| Nc1nc2c(ncn2COCCOC(=O)C(N)Cc2ccccc2)c(=O)[nH]1 | EC50 | VERO |  | SC16 | 0.93 µM |
| O=c1[nH]c(=O)n([C@H]2C[C@H](O)[C@@H](CO[P@]3(=O)OCc4cccc(-c5ccccc5)c4O3)O2)cc1/C=C/Br | EC50 | VERO | plaque count | B2006 (TK-) | >128 µg/mL |
| Nc1nc2c(ncn2[C@@H]2C=C[C@H](CO)[C@@H](O)C2)c(=O)[nH]1 | EC50 |  |  | KOS (TK-) | 0.38 µg/mL |
| CC/C=C/C/C=C/C/C=C/CCCCCCCC(=O)NC(C)(C)C(=O)N1C[C@@H](O)C[C@H]1C(=O)N[C@@H](CC(C)C)C(=O)N[C@H](C(=O)N[C@@H](CCC(N)=O)C(=O)N[C@@H](CC(C)C)C(=O)OC)C(C)C | EC50 | VERO | ELISA |  | 8.5 µM |
| Nc1nc2c(ncn2[C@@H](CCO)SCCO)c(=O)[nH]1 | EC50 | HFF | cytopathic effect |  | >200 µM |
| [N-]=[N+]=N[C@H]1C[C@H](CO)SC1n1cnc2c(N)ncnc21 | EC50 |  |  |  | >100 µg/mL |
| Nc1ccn([C@H]2C[C@H](O)[C@@H](CO)O2)c(=O)n1 | EC50 | HeLa | virus yield |  | <26 µM |
| CO[C@H]1C[C@H](n2cc(/C=C/Br)c(=O)[nH]c2=O)O[C@@H]1COP1(=O)OCc2cccc(C)c2O1 | EC50 | VERO | plaque count | B2006 (TK-) | >128 µg/mL |
| Nc1nccc2nnn([C@@H]3O[C@H](CO)[C@@H](O)[C@H]3O)c12 | EC50 | VERO | plaque count |  | >398 µM |
| [N-]=[N+]=N[C@H]1C[C@@H](CO)S[C@@H]1n1cnc2c(=O)[nH]cnc21 | EC50 |  |  |  | >100 µg/mL |
| CC(=O)Nc1ccc2c(C)cc(N)nc2c1 | EC50 | KB | plaque count |  | 3 µg/mL |
| CCCCCc1nc2n(n1)C(c1ccc(OC)cc1)CC(=O)N2 | EC50 | VERO | plaque count | 7401H | >50 µg/mL |
| Nc1nc(Cl)c2ncn(/C=C3/C[C@H]3CO)c2n1 | EC50 | VERO | ELISA | KOS | 31 µM |
| CC[C@H](C)[C@H](N)C(=O)OCCOCn1cnc2c(=O)[nH]c(N)nc21 | EC50 | VERO |  | SC16 | <6.25 µM |

Repeating the final 5 entries:

structure	endpoint	cell line	read by	strain	value
[N-]=[N+]=N[C@H]1C[C@@H](CO)S[C@@H]1n1cnc2c(=O)[nH]cnc21	EC50				>100 µg/mL
CC(=O)Nc1ccc2c(C)cc(N)nc2c1	EC50	KB	plaque count		3 µg/mL
CCCCCc1nc2n(n1)C(c1ccc(OC)cc1)CC(=O)N2	EC50	VERO	plaque count	7401H	>50 µg/mL
Nc1nc(Cl)c2ncn(/C=C3/C[C@H]3CO)c2n1	EC50	VERO	ELISA	KOS	31 µM
CC[C@H](C)[C@H](N)C(=O)OCCOCn1cnc2c(=O)[nH]c(N)nc21	EC50	VERO		SC16	<6.25 µM